Assay results: patent US20260007717A1 (priority 2022, published 2026)
Non-standard residues stand in square brackets, D forms with d. Residues, ends and D or L forms follow the SMILES beside them. Aib = CC(C)(N)C(=O)O

Tests used:
A. baumannii YQ4 [1] = assay: SEM and TEM cell morphology; conditions: 1×MIC, 30 min, PBS
A. baumannii YQ4 [2] = assay: Live/Dead SYTO-9 / propidium iodide staining, CLSM; assay type: cell-based, Acinetobacter baumannii; conditions: COG1410 1×MIC, polymyxin B 5×MIC, 30 min
A. baumannii YQ4 [3] = assay: RNA-seq transcriptome analysis; assay type: cell-based, Acinetobacter baumannii; conditions: 0.25×MIC (4 μg/ml), M9 medium

CC(=O)N[C@@H](C)C(=O)N[C@@H](CO)C(=O)NC(C)(C)C(=O)N[C@@H](CC(C)C)C(=O)N[C@@H](CCCNC(=N)N)C(=O)N[C@@H](CCCCN)C(=O)N[C@@H](CC(C)C)C(=O)NC(C)(C)C(=O)N[C@@H](CCCCN)C(=O)N[C@@H](CCCNC(=N)N)C(=O)N[C@@H](CC(C)C)C(=O)N[C@@H](CC(C)C)C(N)=O [SEQ ID NO: 1, acetyl-AS-aib-LRKL-aib-KRLL-amide] (Ac-AS[Aib]LRKL[Aib]KRLL-NH2)
cell morphology by SEM (A. baumannii YQ4 [1]): intact, with few cell debris observed | cell morphology by TEM (A. baumannii YQ4 [1]): wrinkled and smaller compared with untreated cells | SYTO-9 / PI staining of treated cells (A. baumannii YQ4 [2]): red fluorescence | genes with decreased transcription level (A. baumannii YQ4 [3]): 37 | genes with increased transcription level (A. baumannii YQ4 [3]): 55 | significantly differentially expressed genes (at least 2-fold change) (A. baumannii YQ4 [3]): 92

polymyxin B [reference compound]
cell morphology by SEM (A. baumannii YQ4 [1]): cell lysis and release of cell contents | cell morphology by TEM (A. baumannii YQ4 [1]): collapse of the cell walls in most cells
